Experiments:
[1] = molecular target: WRAIR-5001 (rhesus macaque); assay: BLI
[2] = molecular target: SARS-CoV-2 Delta (B.1.617.2) RBD (SARS-CoV-2) (UniProt P0DTC2); assay: BLI

Chains of the proteins cited; added tags and fusions are not shown. A line that says so, or that is headed by a name, gives the form on record, which may keep a tag or linker.
WRAIR-5001 (rhesus macaque), VL, as listed by the source, chain 2 of 2: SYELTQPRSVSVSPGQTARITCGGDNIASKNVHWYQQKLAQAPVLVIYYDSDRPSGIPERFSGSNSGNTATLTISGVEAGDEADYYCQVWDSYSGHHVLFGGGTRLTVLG
WRAIR-5001 (rhesus macaque), VH, as listed by the source, chain 1 of 2: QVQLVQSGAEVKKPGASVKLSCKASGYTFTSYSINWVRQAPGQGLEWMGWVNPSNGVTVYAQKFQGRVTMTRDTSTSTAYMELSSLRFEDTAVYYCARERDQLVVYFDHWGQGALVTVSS

| Substance | Kd [1] [nM] | Kd [2] [nM] |
| --- | --- | --- |
| SARS-CoV-2 Delta RBD (from UniProt P0DTC2 331-527) (domain or fragment) | 0.49 |  |
| WRAIR-5001 (from UniProt P01857) |  | 0.49 |

Source: publication PMC10764318
